Test results reported in PMC5825169 (PLoS Pathogens, 2018).

Tested on: RbmC2 D853A
Conditions: ITC; D853A point mutant (GFPUV fusion)

In the case of OC[C@H]1O[C@H](OC[C@H]2OC(O)[C@@H](O)[C@@H](O[C@H]3O[C@H](CO)[C@@H](O)[C@H](O)[C@@H]3O)[C@@H]2O)[C@@H](O)[C@@H](O)[C@@H]1O (stereo partly drawn) [Mannotriose, 1,3-α-1,6-α-D-mannotriose], the “Binding to RbmC2 D853A mutant” value is reported as “lack of binding”.
